Measured values from several laboratories, pooled; numbers as filed in NIAID ChemDB.

Shared fields: whole-cell or culture tests; organism: Candida albicans; measure: MFC

Blank or dashed fields: not listed here.

C[C@@H]1O[C@@H](O[C@H]2[C@H](O[C@H]3CC[C@]4(C)[C@H]5CC=C6[C@@H]7CC(C)(C)CC[C@]7(C(=O)O)CC[C@@]6(C)[C@]5(C)CC[C@H]4C3(C)C)OC[C@H](O)[C@@H]2O)[C@H](O)[C@H](O)[C@H]1O ; strain or isolate: ATCC 90029 ; result: >100 µg/mL
C[C@@H]1Oc2ccccc2/C(=N/OCc2ccc(Cl)c(Cl)c2)[C@H]1n1ccnc1 ; strain or isolate: ATCC 10231 ; result: 16 µg/mL
C[C@@H]1O[C@@H](O[C@H]2[C@H](O)[C@@H](O)C(OC3[C@H](O[C@H]4CC[C@@]5(C)[C@@H](CC[C@]6(C)[C@@H]5CC=C5[C@@H]7CC(C)(C)CC[C@]7(C(=O)O)CC[C@]56C)[C@]4(C)CO)OC[C@H](O)[C@@H]3O)O[C@@H]2CO)[C@H](O)[C@H](O)[C@H]1O ; strain or isolate: Y0109 ; result: 12.5 µg/mL
CCCSc1cc(C(N)=S)ccn1 ; strain or isolate: 3a ; result: 200 µg/mL
C[C@H]1[C@H](O)[C@@H](C)/C=C/C=C/C=C/C=C/C=C/C=C/C=C/[C@H](O[C@@H]2O[C@H](C)[C@@H](O)[C@H](N)[C@@H]2O)C[C@@H]2O[C@](O)(C[C@@H](O)C[C@@H](O)CC[C@H](O)[C@@H](O)C[C@@H](O)CC(=O)O[C@H]1C)C[C@H](O)[C@H]2C(=O)O ; strain or isolate: ATCC 90028 ; result: 5 µg/mL
N=C(N)c1ccc(OCCCC(O)COc2ccc(C(=N)N)cc2)cc1 ; strain or isolate: A39 ; result: 12.5 µg/mL
COc1c(O)c2c(=O)cc(OC)c3c4c(OC)cc(=O)c5c(O)c(OC)c6c(c(c1CC(C)=C6OC(C)=O)c23)c54 ; result: >100 µg/mL
CC1CCC/C(=N\Nc2nc(-c3ccccc3)cs2)CC1 ; result: 25 µg/mL
N=C(N)c1ccc2nc(CCCCc3nc4ccc(C(=N)N)cc4[nH]3)[nH]c2c1 ; strain or isolate: A39 ; result: >100 µg/mL
N=C(N)c1ccc2nc(-c3ccc(-c4nc5ccc(C(=N)N)cc5[nH]4)[nH]3)[nH]c2c1 ; strain or isolate: ATCC 76615 ; result: 0.78 µg/mL
N#Cc1ccccc1/C=N/Nc1ccnc2cc(Cl)ccc12 ; result: >200 µg/mL
N=C(N)c1ccc(OCCCCCOc2ccc(/C(N)=N\O)cc2)cc1 ; strain or isolate: A39 ; result: >100 µg/mL
C[C@@H]1Oc2ccccc2/C(=N/OCc2ccccc2)[C@H]1n1ccnc1 ; strain or isolate: ATCC 10231 ; result: 64 µg/mL
CCC(C)CC(C)CCCCCCCCC(=O)NC1CCCNC(=O)[C@@H]2[C@@H](O)[C@@H](C)CN2C(=O)[C@H]([C@H](O)CC(N)=O)NC(=O)[C@H](C(O)[C@H](O)c2ccc(O)cc2)NC(=O)[C@@H]2C[C@@H](O)CN2C(=O)[C@H]([C@@H](C)O)NC1=O ; strain or isolate: MY1750 ; result: 2 µg/mL
C[C@@H]1O[C@@H](O[C@H]2[C@H](O)[C@@H](O)C(OC3[C@H](O[C@H]4CC[C@]5(C)[C@H]6CC=C7[C@@H]8CC(C)(C)CC[C@]8(C(=O)O)CC[C@@]7(C)[C@]6(C)CC[C@H]5C4(C)C)OC[C@H](O)[C@@H]3O)O[C@@H]2CO)[C@H](O)[C@H](O)[C@H]1O ; strain or isolate: Y0109 ; result: >100 µg/mL
COc1cc(NC(C)CCCN)c2nc(C(C)(C)C)ccc2c1Oc1cccc(C(F)(F)F)c1 ; result: >20 µg/mL
CC1(C)CCC[C@]2(C)[C@@H](C=O)C(C=O)=CC[C@@H]12 ; strain or isolate: ATCC 18804 and ATCC 28815 26555 24433 64544 64550 ; result: 1.56–3.13 µg/mL
CCCCCSc1cc(C(N)=S)ccn1 ; strain or isolate: 176 ; result: 100 µg/mL
C[C@@H]1Oc2ccccc2/C(=N/OCc2ccc(Cl)cc2)[C@H]1n1cncn1 ; strain or isolate: ATCC 10231 ; result: >64 µg/mL
CCC(C)CC(C)CCCCCCCCC(=O)N[C@H]1C[C@H](O)[C@@H](O)NC(=O)[C@@H]2[C@@H](O)[C@@H](O)CN2C(=O)[C@H]([C@H](O)CC(N)=O)NC(=O)[C@H](C(O)[C@H](O)c2ccc(O)cc2)NC(=O)[C@@H]2C[C@@H](O)CN2C(=O)[C@H]([C@@H](C)O)NC1=O ; strain or isolate: MY1208 ; result: 0.5 µg/mL
CCCCCCCCCCCCCSc1cc(C(N)=S)ccn1 ; strain or isolate: 176 ; result: >200 µg/mL
NC=Nc1cccc(SCc2ccc(Cl)cc2)c1 ; strain or isolate: SC5314 ; result: 50 µM
Oc1cccc(C=NNc2ccnc3cc(Cl)ccc23)c1 ; result: >200 µg/mL
N/C(=N/N=C1CCCCCCC1)SCc1ccc(Cl)cc1Cl ; result: >200 µg/mL
CCC(C)CC(C)CCCCCCCCC(=O)N[C@H]1C[C@@H](O)[C@@H](O)NC(=O)[C@@H]2[C@@H](O)CCN2C(=O)[C@H]([C@H](O)CCN)NC(=O)[C@H]([C@H](O)Cc2ccc(O)cc2)NC(=O)[C@@H]2C[C@@H](O)CN2C(=O)[C@H]([C@@H](C)O)NC1=O ; strain or isolate: MY1055 ; result: <0.06 µg/mL
Cc1ccc(/C=N/Nc2ccnc3cc(Cl)ccc23)cc1 ; result: 60 µg/mL
O=C(Nc1nc2ccc(NC(=O)[C@@H]3CCC[C@H](NCc4ccc5ccccc5c4)C3)cc2s1)C1CCCC1 ; strain or isolate: ATCC 90028 ; result: 0.78 µM
C[C@@H]1Oc2cc(Cl)ccc2/C(=N/OCc2ccc(Cl)cc2)[C@H]1n1ccnc1 ; strain or isolate: ATCC 10231 ; result: >64 µg/mL
CCC(C)CC(C)CCCCCCCCC(=O)N[C@H]1C[C@@H](O)[C@@H](O)NC(=O)[C@@H]2[C@@H](O)CCN2C(=O)[C@H]([C@H](O)CCN(C)C)NC(=O)[C@H]([C@H](O)Cc2ccc(O)cc2)NC(=O)[C@@H]2C[C@@H](O)CN2C(=O)[C@H]([C@@H](C)O)NC1=O ; strain or isolate: MY1055 ; result: 1 µg/mL
CCC(C)CC(C)CCCCCCCCC(=O)NC1C[C@H](O)[C@@H](O)NC(=O)[C@@H]2[C@@H](O)[C@@H](C)CN2C(=O)[C@H]([C@H](O)CC(N)=O)NC(=O)[C@H](C(O)[C@H](O)c2ccc(O)cc2)NC(=O)[C@@H]2C[C@@H](O)CN2C(=O)[C@H]([C@@H](C)O)NC1=O ; strain or isolate: MY1055 ; result: 0.125 µg/mL
CCCCCCCCSc1cc(C(N)=S)ccn1 ; strain or isolate: 3a ; result: 100 µg/mL
C[C@@H]1O[C@@H](O[C@H]2[C@H](O[C@H]3CC[C@@]4(C)[C@@H](CC[C@]5(C)[C@@H]4CC=C4[C@@H]6CC(C)(C)CC[C@]6(C(=O)O)CC[C@]45C)[C@]3(C)CO)OC[C@H](O)[C@@H]2O)[C@H](O)[C@H](O)[C@H]1O ; strain or isolate: Y0109 ; result: 25 µg/mL
C[C@@H]1Oc2ccccc2/C(=N/OCc2ccc(Cl)cc2Cl)[C@H]1n1ccnc1 ; strain or isolate: ATCC 10231 ; result: >64 µg/mL
N/C(=N/N=C1CCCC1)SCc1ccccc1Cl ; result: >200 µg/mL
C[C@@H]1Oc2cc(Cl)ccc2/C(=N/OCc2ccccc2)[C@H]1n1ccnc1 ; strain or isolate: ATCC 10231 ; result: >64 µg/mL
CCCCCCCCCCCOC(=O)c1cc(O)c(O)c(O)c1 ; result: >400 µg/mL
N=C(N)c1ccc2nc(CCCc3nc4ccc(C(=N)N)cc4[nH]3)[nH]c2c1 ; strain or isolate: A39 ; result: >100 µg/mL
C[C@@H]1Oc2ccccc2/C(=N/OCc2ccccc2F)[C@H]1n1ccnc1 ; strain or isolate: ATCC 10231 ; result: >64 µg/mL
NC=Nc1cccc(SCc2cc(Br)cc(Br)c2)c1 ; strain or isolate: SC5314 ; result: 5 µM

5 of the rows above, restated:

compound | strain or isolate | result
C[C@@H]1Oc2ccccc2/C(=N/OCc2ccccc2)[C@H]1n1ccnc1 | ATCC 10231 | 64 µg/mL
CCC(C)CC(C)CCCCCCCCC(=O)NC1C[C@H](O)[C@@H](O)NC(=O)[C@@H]2[C@@H](O)[C@@H](C)CN2C(=O)[C@H]([C@H](O)CC(N)=O)NC(=O)[C@H](C(O)[C@H](O)c2ccc(O)cc2)NC(=O)[C@@H]2C[C@@H](O)CN2C(=O)[C@H]([C@@H](C)O)NC1=O | MY1055 | 0.125 µg/mL
COc1cc(NC(C)CCCN)c2nc(C(C)(C)C)ccc2c1Oc1cccc(C(F)(F)F)c1 |  | >20 µg/mL
C[C@H]1[C@H](O)[C@@H](C)/C=C/C=C/C=C/C=C/C=C/C=C/C=C/[C@H](O[C@@H]2O[C@H](C)[C@@H](O)[C@H](N)[C@@H]2O)C[C@@H]2O[C@](O)(C[C@@H](O)C[C@@H](O)CC[C@H](O)[C@@H](O)C[C@@H](O)CC(=O)O[C@H]1C)C[C@H](O)[C@H]2C(=O)O | ATCC 90028 | 5 µg/mL
CCC(C)CC(C)CCCCCCCCC(=O)N[C@H]1C[C@@H](O)[C@@H](O)NC(=O)[C@@H]2[C@@H](O)CCN2C(=O)[C@H]([C@H](O)CCN(C)C)NC(=O)[C@H]([C@H](O)Cc2ccc(O)cc2)NC(=O)[C@@H]2C[C@@H](O)CN2C(=O)[C@H]([C@@H](C)O)NC1=O | MY1055 | 1 µg/mL

a–b is a range or a potency band. Rows are shuffled and stem from different studies.